Tested on: YhaJ
Test: EMSA
Conditions: YhaJ 0-1 uM, outcompeted by 100-fold unlabeled P1, EMSA: Roche DIG Gel Shift Kit 2nd Gen (buffer, salt and pH not stated), 30 min at 30 C, DIG probe diluted to 0.4 ng/ul, 6% DNA retardation gel, recombinant protein, residues 1-298, protein details: N-terminal 6xHis (pET-28b), label: DIG (ddUTP-11-DIG), probe letters rebuilt from the primers and the genome

CAAACAACCACCTTAAAATGTTATTATTCTCTTTTTTCTAATGTGTAAAATACATTATCATTAAATGTCAACAAAAAAATCATATATTTTTAAAATCCATTTAAAATCAATGATATAGAAGAAAATCATCTCGTTAACAAACGACTTTAATAATTGCATTTCCATTTAGTTAAGCGTTTCTCTTTATAAGATAGATCTCATTGCATAAACAAATAAAACAGAATAAAAACCAAGCTGAACCGTTTCACTATACTCTACTTAATTCGAGTTACAGGAAGGCGGCAAGCGAGTGAATCCCCAGGAGCTTACAT (double strand) [LEE1 P1 promoter probe]
binding result: binds

Reference: article PMC4699771
